Results of unrelated studies side by side (data: NIAID ChemDB).

Shared fields: growth or infection tests; species: Mycobacterium avium

ECn is the concentration giving n% inhibition of infection, replication or growth. Neighbouring rows are from separate reports. Blank or dashed fields: not listed here.

compound,measure,conditions,read by,strain,value
CC[C@H]1OC(=O)[C@H](C)[C@@H](O[C@H]2C[C@@](C)(OC)[C@@H](O)[C@H](C)O2)[C@H](C)[C@@H](O[C@@H]2O[C@H](C)C[C@H](N(C)C)[C@H]2O)[C@](C)(O)C[C@@H](C)CN(C)[C@H](C)[C@@H](O)[C@]1(C)O,MIC,,,3011,8 µg/mL
CO[C@H]1/C=C/O[C@@]2(C)Oc3c(C)c(O)c4c(O)c(c5c(c4c3C2=O)NC2(CCN(CC(C)C)CC2)N=5)=NC(=O)/C(C)=C\C=C\[C@H](C)[C@H](O)[C@@H](C)[C@@H](O)[C@@H](C)[C@H](OC(C)=O)[C@@H]1C,Median MIC,,,ATCC 25291,0.5 µg/mL
N[C@@H]1CONC1=O,MIC,,,3011,8 µg/mL
CC(C)N=c1cc2n(-c3ccc(Cl)cc3)c3ccccc3nc-2cc1Nc1ccc(Cl)cc1,Median MIC,,,ATCC 25291,0.31 µg/mL
CCn1cc(C(=O)O)c(=O)c2cc(F)c(-n3cccc3)cc21,EC50,pH 6.8,,,<3 µg/mL
CC[C@H]1OC(=O)[C@H](C)[C@@H](O[C@H]2C[C@@](C)(OC)[C@@H](O)[C@H](C)O2)[C@H](C)[C@@H](O[C@@H]2O[C@H](C)C[C@H](N(C)C)[C@H]2O)[C@](C)(OC)C[C@@H](C)C(=O)[C@H](C)[C@@H](O)[C@]1(C)O,MIC,pH 7.4,broth dilution / radiometric,1625,1 µg/mL
CC[C@@H](CO)NCCN[C@@H](CC)CO,MIC,,,453-C clarithromycin-resistant,>8 µg/mL
CO[C@H]1/C=C/O[C@@]2(C)Oc3c(C)c(O)c4c(O)c(c5c(c4c3C2=O)NC2(CCN(CC(C)C)CC2)N=5)=NC(=O)/C(C)=C\C=C\[C@H](C)[C@H](O)[C@@H](C)[C@@H](O)[C@@H](C)[C@H](OC(C)=O)[C@@H]1C,MIC,,,Isolate 90-0842,>1 µg/mL
CN[C@@H]1[C@@H](O)[C@@H](O[C@@H]2[C@@H](O)[C@H](O[C@H]3O[C@H](CN)CC[C@H]3N)[C@@H](N)C[C@H]2N)OC[C@]1(C)O,Mean MIC,,,ATCC 25291,6.25 µg/mL
CC[C@H]1OC(=O)[C@H](C)[C@@H](O[C@H]2C[C@@](C)(OC)[C@@H](O)[C@H](C)O2)[C@H](C)[C@@H](O[C@@H]2O[C@H](C)C[C@H](N(C)C)[C@H]2O)[C@](C)(OC)C[C@@H](C)C(=O)[C@H](C)[C@@H](O)[C@]1(C)O,MIC,,,453,≤0.5 µg/mL
NC[C@H]1O[C@H](O[C@H]2[C@H](O)[C@@H](O[C@H]3O[C@H](CO)[C@@H](O)[C@H](N)[C@H]3O)[C@H](N)C[C@@H]2N)[C@H](N)C[C@@H]1O,Mean MIC,,,ATCC 25291,6.5 µg/mL
CO[C@H]1/C=C/O[C@@]2(C)Oc3c(C)c(O)c4c(=O)c(c5oc6cc(N7CCN(CC(C)C)CC7)cc(=O)c6nc5c4c3=C2O)NC(=O)/C(C)=C\C=C\[C@H](C)[C@H](O)[C@@H](C)[C@@H](O)[C@@H](C)[C@H](OC(C)=O)[C@@H]1C,MBC,,,3010,>0.125 µg/mL
CCN(CC)c1nc2c(s1)c1c(O)c3c(O)c(C)c4c(c32)C(=O)[C@@](C)(O/C=C/[C@H](OC)[C@@H](C)[C@@H](OC(C)=O)[C@H](C)[C@H](O)[C@H](C)[C@@H](O)[C@@H](C)/C=C/C=C(/C)C(=O)N1)O4,MBC,,,3350-4,4 µg/mL
Cc1cc(-c2cc3c(cc2F)c(=O)c(C(=O)O)cn3C2CC2)cc(C)n1,MBC,,,453,4 µg/mL

A second listing of 2 rows from above:

compound | measure | conditions | read by | strain | value
CC[C@@H](CO)NCCN[C@@H](CC)CO | MIC |  |  | 453-C clarithromycin-resistant | >8 µg/mL
CCN(CC)c1nc2c(s1)c1c(O)c3c(O)c(C)c4c(c32)C(=O)[C@@](C)(O/C=C/[C@H](OC)[C@@H](C)[C@@H](OC(C)=O)[C@H](C)[C@H](O)[C@H](C)[C@@H](O)[C@@H](C)/C=C/C=C(/C)C(=O)N1)O4 | MBC |  |  | 3350-4 | 4 µg/mL